Compound potency records, mixed from different reports. Data source: NIAID ChemDB in PubChem.

Shared fields: whole-cell or culture tests; organism: Hepatitis C virus; cell line: Huh7; endpoint: EC50

Lines come from different laboratories, so protocols vary. a–b is a range or a potency band. ECn: concentration that inhibits the pathogen or its effect by n%.

CNC(=O)c1c(-c2ccc(F)cc2)oc2cc(OC)c(O)cc12 ; method: replicon ; value: >30 µM
O=C(N/N=C/c1ccccc1OS(=O)(=O)c1ccc(C(F)(F)F)cc1)c1ccc(Cl)cc1Cl ; method: replicon ; value: <5 µM
CNC(=O)c1c(-c2ccc(F)cc2)oc2cc(C(C)(C)NS(C)(=O)=O)c(OC)cc12 ; method: replicon ; value: <10 µM
C=C[C@@H]1C[C@]1(NC(=O)[C@@H]1C[C@@H](Oc2cc(-c3ccccc3)nc3cc(OC)ccc23)CN1C(=O)[C@@H](NC(=O)OC(C)(C)C)C(C)(C)C)C(=O)NS(=O)(=O)c1ccccc1I ; strain or isolate: 1b ; method: replicon ; value: <0.5 µM
CNC(=O)c1c(-c2ccc(F)cc2)oc2cc(-c3c(C)n[nH]c3C)c(OC(C)C)cc12 ; method: replicon ; value: <1 µM
C[C@@]1(O)[C@H](O)[C@@H](CO)O[C@H]1n1cnc2c(NCCN)ncnc21 ; method: replicon ; value: <25 µM
C=C1C[C@]1(NC(=O)[C@@H]1C[C@@H](Oc2cc(-c3ccccc3)nc3cc(OC)ccc23)CN1C(=O)[C@@H](NC(=O)OC(C)(C)C)C(C)(C)C)C(=O)NS(=O)(=O)c1ccccc1F ; strain or isolate: 1b ; method: replicon ; value: <0.5 µM
CNC(=O)c1c(-c2ccc(F)cc2)oc2cc(NS(C)(=O)=O)c(-c3cccs3)cc12 ; method: replicon ; value: <1 µM
C=CC[C@](C)(NC(=O)[C@H]1C[C@@H](Oc2cc3c(Cl)nccc3c3c2OCO3)CN1C(=O)[C@@H](NC(=O)OC(C)(C)C)C(C)(C)C)C(=O)NS(=O)(=O)C1CC1 ; strain or isolate: BMS ; method: replicon ; value: <0.1 µM
COc1ccc(-c2cnc3nc(N)nc(N4CCN(C(=O)Nc5ccccc5)CC4)c3n2)cc1OC ; strain or isolate: HCV replicon ; method: replicon ; value: <0.3 µM
Cc1ccc(Nc2s[nH]c(=O)c2C#N)cc1 ; method: replicon ; value: >50 µM
C=C[C@@H]1C[C@@]1(NC(=O)[C@H]1C[C@@H](Oc2nnc(OC(C)C)c3ccccc23)CN1C(=O)[C@@H](N)C(C)(C)C)C(=O)NS(=O)(=O)C1CC1 ; strain or isolate: BMS ; method: replicon ; value: 0.1–1 µM
COc1c(C(C)(C)C)cc(-n2ccc(=O)[nH]c2=O)c2ncc(-c3ccc(NS(C)(=O)=O)cc3)cc12 ; strain or isolate: GT 1a-H77 ; method: replicon ; conditions: 40% human serum ; value: 0.004 µM
C[C@@]1(O)[C@H](O)[C@@H](CO)O[C@H]1n1cnc2c(ONC(=O)OCc3ccccc3)ncnc21 ; method: replicon ; value: <25 µM
CNC(=O)c1c(-c2ccc(F)cc2)oc2cc(N(C)S(C)(=O)=O)c(OCC(=O)O)cc12 ; method: replicon ; value: <30 µM
C=C[C@@H]1C[C@]1(NC(=O)[C@@H]1C[C@@H](Oc2cc(-c3ccccc3)nc3cc(OC)ccc23)CN1C(=O)[C@@H](Nc1ccncc1[N+](=O)[O-])C(C)(C)C)C(=O)NS(=O)(=O)C1CC1 ; strain or isolate: 1b ; method: replicon ; value: <50 µM
CCCCOC(=O)C1(c2ccccc2)CCN(c2cccc(NC(N)=S)c2)CC1 ; method: replicon ; value: <1 µM
COCCOC(=O)N1CCN(c2nc(N)nc3ncc(-c4ccc(OC)c(OC)c4)nc23)CC1 ; strain or isolate: HCV replicon ; method: replicon ; value: <0.3 µM
CNC(=O)c1c(-c2ccc(F)cc2)oc2cc(C3CCCN3S(C)(=O)=O)c(OC(C)C)cc12 ; method: replicon ; value: <1 µM
O=C(CSc1ccccc1)N/N=C/c1ccccc1OS(=O)(=O)c1ccc(C(F)(F)F)cc1 ; method: replicon ; value: <5 µM
NC(=S)NCc1ccc(OC(F)(F)F)cc1 ; method: replicon ; value: <1 µM
CNC(=O)c1c(-c2ccc(F)cc2)oc2cc(C3NC(=O)NC3=O)c(OC)cc12 ; method: replicon ; value: <10 µM
NC(=S)NC1(c2ccc(Oc3ccccc3)cc2)CCCC1 ; method: replicon ; value: <1 µM
COc1cc(OC)c(CC(=O)N/N=C/c2ccccc2OS(=O)(=O)c2ccc(C(F)(F)F)cc2)c(OC)c1 ; method: replicon ; value: 5–50 µM
COc1ccc(Nc2s[nH]c(=O)c2C#N)cc1 ; method: replicon ; value: 10–50 µM
CONc1ncnc2c1ncn2[C@@H]1O[C@H](CO)[C@@H](O)[C@@]1(C)O ; method: replicon ; value: <25 µM
C=C[C@@H]1C[C@@]1(NC(=O)[C@H]1C[C@@H](Oc2nnc(OCC)c3ccccc23)CN1C(=O)[C@@H](N)C(C)(C)C)C(=O)NS(=O)(=O)C1CC1 ; strain or isolate: BMS ; method: replicon ; value: <0.1 µM
N#Cc1c(Nc2cc(F)c(Br)c(F)c2)s[nH]c1=O ; method: replicon ; value: <1 µM
OCc1nnc(-c2ccc(N3CC(Oc4ccccc4C(F)(F)F)C3)nn2)o1 ; strain or isolate: GT1b ; method: PCR ; conditions: 50% human serum ; value: >40 µM
COC(=O)NNc1ncnc2c1ncn2[C@@H]1O[C@H](CO)[C@@H](O)[C@@]1(C)O ; method: replicon ; value: <25 µM
NC(=S)Nc1cccc(OCCc2ccccc2)c1 ; method: replicon ; value: <1 µM
C=C[C@@H]1C[C@]1(NC(=O)[C@@H]1C[C@@H](Oc2nc3c(Cl)nccc3cc2OC)CN1C(=O)[C@@H](NC(=O)OC(C)(C)C)C(C)(C)C)C(=O)NS(=O)(=O)C1CC1 ; strain or isolate: BMS ; method: replicon ; value: 0.1–1 µM
O=C(Cc1ccccc1)N/N=C/c1ccccc1OS(=O)(=O)c1ccc(F)c(Cl)c1 ; method: replicon ; value: 5–50 µM
CC(NC(N)=S)c1ccc(Oc2ccccc2)cc1 ; method: replicon ; value: <1 µM
C=C[C@@H]1C[C@]1(NC(=O)[C@@H]1C[C@@H](Oc2cc(-c3ccccc3)nc3cc(OC)ccc23)CN1C(=O)[C@@H](NC(=O)OCc1ccccc1)C(C)(C)C)C(=O)NS(=O)(=O)C1CC1 ; strain or isolate: 1b ; method: replicon ; value: <0.05 µM
O=C(C1CCCC1)N1CCC2(CCCN(c3ncc(-c4ccccc4)c(-c4ccc(Cl)cc4)n3)C2)CC1 ; strain or isolate: H77 ; method: luciferase ; conditions: genotype 1a ; value: 0.477 µM
C=CCC(NC(=O)[C@H]1C[C@@H](Oc2ccnc3ccccc23)CN1C(=O)[C@@H](NC(=O)OC(C)(C)C)C(C)(C)C)C(=O)NS(=O)(=O)C1CC1 ; strain or isolate: BMS ; method: replicon ; value: 0.1–1 µM
C=C[C@@H]1C[C@]1(NC(=O)[C@@H]1C[C@@H](Oc2cc(-c3ccccc3)nc3cc(OC)ccc23)CN1C(=O)[C@@H](NC(=O)OC(C)(C)C)C(C)(C)C)C(=O)NS(=O)(=O)c1ccc(OC)cc1 ; strain or isolate: 1b ; method: replicon ; value: <0.05 µM
CCOc1nc(NCc2ccc(S(N)(=O)=O)cc2)nc2ncc(-c3ccc(F)cc3)nc12 ; strain or isolate: HCV replicon ; method: replicon ; value: <0.3 µM
C[C@@]1(O)[C@H](O)[C@@H](CO)O[C@H]1n1cnc2c(N(CCO)CCO)ncnc21 ; method: replicon ; value: >100 µM
COc1ccc(-c2cnc3nc(N)nc(N4CCN(C(=O)NCCc5cccs5)CC4)c3n2)cc1OC ; strain or isolate: HCV replicon ; method: replicon ; value: <0.3 µM
Nc1nc2cnc(N3CCC(Oc4cc(F)ccc4Br)CC3)nc2s1 ; strain or isolate: GT1a ; method: PCR ; value: 0.01 µM
CNC(=O)c1c(-c2ccc(F)cc2)oc2cc(N(C)S(C)(=O)=O)c(O)cc12 ; method: replicon ; value: <10 µM
NC(=S)NC1Cc2ccccc2C1 ; method: replicon ; value: <1 µM
COc1cc(O[C@@H]2C[C@@H](C(=O)NC3(C(=O)NS(=O)(=O)C4CC4)CC34CC4)N(C(=O)[C@@H](NC(=O)OC(C)(C)C)C(C)(C)C)C2)c2ccc(-c3ccccc3)cc2n1 ; strain or isolate: 1b ; method: replicon ; value: <0.5 µM
COc1ccc(-c2cnc3nc(N)nc(N4CCN(Cc5cccc(C)c5)CC4)c3n2)cc1OC ; strain or isolate: HCV replicon ; method: replicon ; value: <0.3 µM
N#Cc1c(Nc2cc(C(F)(F)F)cc(C(F)(F)F)c2)s[nH]c1=O ; method: replicon ; value: 1–10 µM
O=C(c1ccc2[nH]ccc2c1)N1CCC2(CCCN(c3ncc(-c4ccccc4)c(-c4ccc(Cl)cc4)n3)C2)CC1 ; strain or isolate: H77 ; method: luciferase ; conditions: genotype 1a ; value: 0.782 µM
CNC(=O)c1c(-c2ccc(F)cc2)oc2cc(C#N)c(OC)cc12 ; method: replicon ; value: <1 µM
C=C[C@@H]1C[C@]1(NC(=O)[C@@H]1C[C@@H](Oc2cc(-c3ccccc3)nc3cc(OC)ccc23)CN1C(=O)[C@@H](NC(=O)OC(C)(C)C)C(C)(C)C)C(=O)NS(=O)(=O)CC(C)(C)C ; strain or isolate: 1b ; method: replicon ; value: <0.5 µM
COC(=O)c1ccc(Nc2s[nH]c(=O)c2C#N)cc1 ; method: replicon ; value: 10–50 µM
NC(=S)Nc1cccc(-c2ccccc2)c1 ; method: replicon ; value: <1 µM
C=CC[C@](C)(NC(=O)[C@H]1C[C@@H](Oc2ccnc3c(F)cccc23)CN1C(=O)[C@@H](NC(=O)OC(C)(C)C)C(C)(C)C)C(=O)NS(=O)(=O)C1CC1 ; strain or isolate: BMS ; method: replicon ; value: <0.1 µM
COc1ccc(-c2cnc3nc(N)nc(N4CCN(C(=O)Oc5ccc(C)cc5)CC4)c3n2)cc1OC ; strain or isolate: HCV replicon ; method: replicon ; value: <0.3 µM
C=C[C@@H]1C[C@]1(NC(=O)[C@@H]1C[C@@H](Oc2cc3ccc(OC)cc3c(-c3csc(N(C)C)n3)n2)CN1C(=O)[C@@H](NC(=O)OC(C)(C)C)C(C)(C)C)C(=O)NS(=O)(=O)C1CC1 ; strain or isolate: BMS ; method: replicon ; value: <0.1 µM
COc1ccc(-c2cnc3nc(N)nc(N4CCN(C(=O)N5CCCC5)CC4)c3n2)cc1OC ; strain or isolate: HCV replicon ; method: replicon ; value: <0.3 µM
NC(=S)NCCc1cccc(OCc2ccccc2)c1 ; method: replicon ; value: <1 µM
N#Cc1c(NCCc2ccc(O)cc2)s[nH]c1=O ; method: replicon ; value: >50 µM
CCOc1nc(N)nc2ncc(-c3ccc(F)cc3)nc12 ; strain or isolate: HCV replicon ; method: replicon ; value: <0.3 µM
C=CC[C@](C)(NC(=O)[C@H]1C[C@@H](Oc2nccc3cc(C)ccc23)CN1C(=O)[C@@H](NC(=O)OC(C)(C)C)C(C)(C)C)C(=O)NS(=O)(=O)C1CC1 ; strain or isolate: BMS ; method: replicon ; value: <0.1 µM
N#Cc1c(NC2CCCCC2)s[nH]c1=O ; method: replicon ; value: >50 µM
OCc1ccn2cc(-c3cn(Cc4cc(Cl)c(Cl)c(Cl)c4)nn3)nc2c1 ; strain or isolate: GT1a ; method: PCR ; value: 0.025 µM
C=CC[C@](C)(NC(=O)[C@H]1C[C@@H](Oc2nccc3c4c(c(SC)cc23)OCO4)CN1C(=O)[C@@H](NC(=O)OC(C)(C)C)C(C)(C)C)C(=O)NS(=O)(=O)C1CC1 ; strain or isolate: BMS ; method: replicon ; value: <0.1 µM
CCOc1cccc(/C=N/NC(=O)Cc2cccc(OC)c2)c1OS(=O)(=O)c1ccc(C)cc1 ; method: replicon ; value: 5–50 µM

For reference, 8 entries again:

COCCOC(=O)N1CCN(c2nc(N)nc3ncc(-c4ccc(OC)c(OC)c4)nc23)CC1 ; strain or isolate: HCV replicon ; method: replicon ; value: <0.3 µM
C=C[C@@H]1C[C@]1(NC(=O)[C@@H]1C[C@@H](Oc2cc(-c3ccccc3)nc3cc(OC)ccc23)CN1C(=O)[C@@H](NC(=O)OC(C)(C)C)C(C)(C)C)C(=O)NS(=O)(=O)c1ccc(OC)cc1 ; strain or isolate: 1b ; method: replicon ; value: <0.05 µM
CCOc1nc(NCc2ccc(S(N)(=O)=O)cc2)nc2ncc(-c3ccc(F)cc3)nc12 ; strain or isolate: HCV replicon ; method: replicon ; value: <0.3 µM
COc1ccc(-c2cnc3nc(N)nc(N4CCN(Cc5cccc(C)c5)CC4)c3n2)cc1OC ; strain or isolate: HCV replicon ; method: replicon ; value: <0.3 µM
CCCCOC(=O)C1(c2ccccc2)CCN(c2cccc(NC(N)=S)c2)CC1 ; method: replicon ; value: <1 µM
NC(=S)Nc1cccc(-c2ccccc2)c1 ; method: replicon ; value: <1 µM
C=C[C@@H]1C[C@]1(NC(=O)[C@@H]1C[C@@H](Oc2cc(-c3ccccc3)nc3cc(OC)ccc23)CN1C(=O)[C@@H](NC(=O)OC(C)(C)C)C(C)(C)C)C(=O)NS(=O)(=O)CC(C)(C)C ; strain or isolate: 1b ; method: replicon ; value: <0.5 µM
COc1ccc(-c2cnc3nc(N)nc(N4CCN(C(=O)Nc5ccccc5)CC4)c3n2)cc1OC ; strain or isolate: HCV replicon ; method: replicon ; value: <0.3 µM